Experimental findings from patent publication US20070032460A1, “Use of voacamine and related compounds in the treatment of malaria” (priority 2005, published 2007) are described below.

Test [1] deals with CQ-resistant (W2) strain of P. falciparum. Briefly: microbe, parasite or virus in culture. As to conditions: Plasmodium falciparum.
For test [2] the test system is unchanged.
Where [3] appears, read: W2, read-out: IC50 of each drug in combination VOA (1.0 μM) CQ (0.3 μM).
Where [4] appears, read: W2, read-out: IC50 of each drug in combination VOA (2.0 μM) CQ (0.2 μM).

Like-named read-outs stand apart in the source and are kept apart here.

As for `CCN(CC)CCCC(C)Nc1ccnc2cc(Cl)ccc12` (stereo not shown) [CQ, chloroquine, reference compound], the figures for the IC50 in test [1] (setting [3]) and in test [1] (setting [4]) were 0.0256 ± 0.0032 µM and 0.0091 ± 0.0021 µM, respectively.

For `C[C@@H]1CC[C@H]2[C@@H](C)C(=O)O[C@@H]3O[C@@]4(C)CC[C@@H]1[C@]32OO4` [QHS, qinghaosu, reference compound], the IC50 – broadly, the concentration that gives 50% inhibition – in test [2] (read-out: IC50, single drug) came to 0.0576 ± 0.0045 µM; in test [2] (read-out: IC50 of each drug in combination VOA (1.0 μM) QHS (0.3 μM)), 0.0228 ± 0.0031 µM; in test [2] (read-out: IC50 of each drug in combination VOA (2.0 μM) QHS (0.2 μM)) it was 0.0093 ± 0.0015 µM; in test [2] (read-out: IC50 of each drug in combination VOA (3.0 μM) QHS (0.1 μM)), 0.0057 ± 0.0012 µM.

For `CC=C1CN(C)C2Cc3c([nH]c4ccccc34)C(c3cc4[nH]c5c(c4cc3OC)CCN3CC4CC(CC)C3C5(C(=O)OC)C4)CC1C2C(=O)OC` (stereo not shown) [VOA, Voacamine], the IC50 turned out to be 0.29 µM in test [1] (W2, read-out: IC50 (10^−7 M) R); 0.29 ± 0.0247 µM in test [1] (W2, read-out: IC50, single drug); 0.0795 ± 0.0137 µM in test [1] (setting [3]); 0.0789 ± 0.0145 µM in test [1] (W2, read-out: IC50 of each drug in combination VOA (1.0 μM) QHS (0.3 μM)); 0.126 ± 0.0161 µM in test [1] (setting [4]); 0.0981 ± 0.0173 µM in test [1] (W2, read-out: IC50 of each drug in combination VOA (2.0 μM) QHS (0.2 μM)). The IC50 in test [1] (W2, read-out: IC50 of each drug in combination VOA (3.0 μM) CQ (0.1 μM)) was 0.255 ± 0.0396 µM; in test [1] (W2, read-out: IC50 of each drug in combination VOA (3.0 μM) QHS (0.1 μM)), 0.297 ± 0.0541 µM; in test [2] (read-out: IC50, single drug), 0.305 ± 0.0292 µM.

Consider Decarbomethoxyvoacamine [DCV], for which, in test [2] (read-out: IC50 (10^−7 M) R), the IC50 was 0.82 µM.

Consider Ervahanine, for which the IC50 in test [2] (read-out: IC50 (10^−7 M) R) was found to be 0.88 µM.

As for Tabernamine, in test [2] (read-out: IC50 (10^−7 M) R), the IC50 turned out to be 0.95 µM.

Take Voacamidine [VDN]: the IC50 in test [2] (read-out: IC50 (10^−7 M) R) is 0.98 µM.
